Measured values from several laboratories, pooled; numbers as filed in NIAID ChemDB.

Common to all: growth or infection tests

An empty or dashed field is not shown.

compound,method,species,strain,cells,tested at,changes,endpoint,value
Nc1nc2c(ncn2COCCO)c(=O)[nH]1,PCR,Adenovirus,TYPE 2,HEL,,,EC50,>500 µM
CCCCCCCCCCCCNc1nc(=O)c2ncn([C@@H]3C[C@H](O)[C@@H](CO)O3)c2c(=O)[nH]1,cytopathic effect,West Nile virus,,HepG2.2.15,,,EC50,3–10 µM
Nc1ncnc2c1ncn2CCOCP(=O)(O)O,plaque count,Mouse cytomegalovirus,Foscarnet-resistant,C1271,,,EC50,11.1 µM
Cc1cn([C@H]2C=C[C@@H](CO)O2)c(=O)[nH]c1=O,antigen,Duck hepatitis B virus,,Primary duck hepatocytes,,,EC50,50 µg/mL
Nc1ncnc2c1ncn2[C@H]1C[C@H](O)[C@@H](CO)O1,cytopathic effect,Maedi-visna virus,KV1772,Sheep chondrocytes G81092,,,EC50,1.5 µM
Nc1ccn([C@@H]2C[C@H](CO)[C@@H](O)[C@H]2O)c(=O)n1,cytopathic effect,Respiratory syncytial virus,S-2,HeLa,,,EC50,>100 µg/mL
Oc1c(O)c(Cl)c(Cl)c(Cl)c1Cl,,Saccharomyces cerevisiae,288C,,,,MIC,50 µg/mL
CC1OC(n2ccc(NC(=O)c3ccc(NC(=O)C(C)(N)CO)cc3)nc2=O)CCC1OC1OC(C)C(N(C)C)C(O)C1O,cytopathic effect,Herpes simplex virus 1,KOS,HeLa,,,EC50,16 µM
CN[C@@H]1[C@H](O[C@H]2[C@H](O[C@H]3[C@H](O)[C@@H](O)[C@H](N=C(N)N)[C@@H](O)[C@@H]3N=C(N)N)O[C@@H](C)[C@]2(O)C=O)O[C@@H](CO)[C@H](O)[C@H]1O,agar diffusion,Klebsiella pneumoniae,ESBL-3967,,250 µg/disc,,zone,14 mm
N=C(N)c1ccc2[nH]c(C(=N)N)cc2c1,cytopathic effect,Respiratory syncytial virus,S-2,HeLa,,,EC50,>100 µg/mL
CCC(C)n1ncn(-c2ccc(N3CCN(c4ccc(OC[C@H]5CO[C@](Cn6cncn6)(c6ccc(Cl)cc6Cl)O5)cc4)CC3)cc2)c1=O,,Candida albicans,A14060,,,,MIC,0.13 µg/mL
Nc1ccn([C@@H]2O[C@H](CO)[C@@H](O)[C@@H]2O)c(=O)n1,antigen,Duck hepatitis B virus,,Primary duck hepatocytes,,,EC50,>100 µg/mL
COc1ccc(CCC(=O)c2c(O)cc(O[C@@H]3O[C@H](CO)[C@@H](O)[C@H](O)[C@H]3O[C@@H]3O[C@@H](C)[C@H](O)[C@@H](O)[C@H]3O)cc2O)cc1O,cytopathic effect,Herpes simplex virus 1,KOS,HeLa,,,EC50,>200 µg/mL
N=C(N)CCNC(=O)[C@H]1CCC(N)=N1,,Parainfluenza virus,TYPE 3,,,,MIC,12 µg/mL
Nc1nc(=O)c2ncn([C@@H]3C[C@H](O)[C@@H](CO)O3)c2c(=O)[nH]1,cytopathic effect,West Nile virus,,HepG2.2.15,,,EC50,20–50 µM
O=c1[nH]c(=O)n([C@H]2C[C@H](O)[C@@H](CO)O2)cc1/C=C/Br,antigen,Duck hepatitis B virus,,Primary duck hepatocytes,,,EC50,>50 µg/mL
Nc1ccn([C@@H]2CS[C@H](CO)O2)c(=O)n1,PCR,Adenovirus,TYPE 2,HEL,,,EC50,>100 µM
CC[C@H]1OC(=O)[C@H](C)[C@@H](OC2CC(C)(OC)C(O)C(C)O2)C(C)[C@@H](OC2OC(C)CC(N(C)C)C2O)[C@](C)(O)C[C@@H](C)C(=O)[C@H](C)[C@@H](O)[C@H]1C,cytopathic effect,Herpes simplex virus 1,KOS,HeLa,,,EC50,>200 µg/mL
O=C(O)P(=O)(O)O,plaque count,Mouse cytomegalovirus,Foscarnet-resistant,C1271,,,EC50,640 µM
C[C@H](Cn1cnc2c(N)ncnc21)OCP(=O)(O)O,p27 / ELISA,SIV,,PBMC,,,EC90,0.24 µM
CC(=O)NC[C@H]1CN(c2ccc(N3CCN(C(=O)CO)CC3)c(F)c2)C(=O)O1,,Staphylococcus aureus,Oxacillin-resistant,,,,MIC50,1–4 µg/mL
N#CC[C@H](C1CCCC1)n1cc(-c2ncnc3[nH]ccc23)cn1,p24 / ELISA,SHIV,,Macrophage,,,EC90,4.2 µM
OC[C@H]1O[C@@H](n2cnc3c(NC4CC4)ncnc32)[C@H](O)[C@@H]1O,cytopathic effect,Maedi-visna virus,KV1772,Sheep chondrocytes G81092,,,EC50,15 µM
C#CC[C@@H](C(=O)N[C@H](/C=C/C(=O)OCC)C[C@@H]1CCNC1=O)n1cccc(NC(=O)c2cc(C)on2)c1=O,cytopathic effect / XTT,Rhinovirus,Serotype 3,H1-HELA,0.063 µM,,inhibition,90%
C[C@@H]1CN(c2c(F)c(N)c3c(=O)c(C(=O)O)cn(C4CC4)c3c2F)C[C@H](C)N1,broth dilution,Mycobacterium avium complex,11,,,,MIC,≤0.06 µg/mL
OC[C@@H]1CC[C@H](n2cnc3c(NC4CCCCCC4)nc(Cl)nc32)O1,cytopathic effect,Bovine herpesvirus 1,IRB-LA,MDBK,,,EC50,>50 µM
Nc1ncnc2c1ncn2[C@@H]1O[C@H](CO)[C@@H](O)[C@@H]1O,antigen,Duck hepatitis B virus,,Primary duck hepatocytes,,,EC50,15 µg/mL
Nc1ccnc2c1ncn2[C@H]1C=C[C@@H](OCP(=O)(O)O)O1,virus yield,Adenovirus,TAK (TYPE 41),,,,EC90,1 µg/mL
CC/C=C\C/C=C\C/C=C\CCCCCCCCO,cytopathic effect,Herpes simplex virus 1,KOS,HeLa,,,EC50,>200 µg/mL
O=c1[nH]c(=O)n([C@H]2C[C@H](O)[C@@H](CO)O2)cc1/C=C/Br,PCR,Adenovirus,TYPE 2,HEL,,,EC50,>500 µM
Nc1ncnc2c1ccn2[C@@H]1O[C@H](CO)[C@@H](O)[C@H]1O,cytopathic effect,Respiratory syncytial virus,LONG,HeLa,,,EC50,1 µg/mL
Nc1nc2c(ncn2COC(COCP(=O)(O)O)COCP(=O)(O)O)c(=O)[nH]1,plaque count,Mouse cytomegalovirus,HPMPC-resistant,C1271,,,EC50,3.7 µM
OC[C@H]1O[C@@H](n2cnc3c(NC4CC4)ncnc32)C[C@@H]1O,cytopathic effect,Maedi-visna virus,KV1772,Sheep chondrocytes G81092,,,EC50,1.5 µM
CCO/N=C/c1ccc(OCCC2CCN(c3ccc(C)nn3)CC2)cc1,neutral red,Rhinovirus,181-CV16 (ICAM-1 receptor group 12),KB,,,EC50,0.027 µM
Nc1nc2c(ncn2CCOCP(=O)(O)O)c(=O)[nH]1,virus yield,Measles virus,CC,,12 µg/mL,,inhibition,90%
Nc1cc2[nH]cnc2c(=O)[nH]1,cytopathic effect,Respiratory syncytial virus,58-8,HeLa,,,EC50,1 µg/mL
CC(C)(CO)C(=O)SCCOP(=O)(NCc1ccccc1)OC[C@H]1O[C@@H](n2cnc3c(=O)[nH]c(N)nc32)[C@](C)(O)[C@@H]1O,replicon,Hepatitis C virus,GT1b,Replicon cells,,Y93H,fold resistance,0.75
CC[C@H]1OC(=O)[C@H](C)[C@@H](O[C@H]2C[C@@](C)(OC)[C@@H](O)[C@H](C)O2)[C@H](C)[C@@H](O[C@@H]2O[C@H](C)C[C@H](N(C)C)[C@H]2O)[C@@H](C)C[C@@H](C)C(=O)[C@H](C)[C@@H](O)[C@H]1C,cytopathic effect,Herpes simplex virus 1,KOS,HeLa,,,EC50,>200 µg/mL
CCC(=O)CCCCC[C@@H]1NC(=O)[C@H]2CCCCN2C(=O)[C@H](C(C)CC)NC(=O)[C@H](Cc2cn(OC)c3ccccc23)NC1=O,,Toxoplasma gondii,,,,,MIC,0.008 µg/mL
Nc1ccn(C[C@@H](CO)OCP(=O)(O)O)c(=O)n1,PCR,Adenovirus,TYPE 2,HEL,,,EC50,3.1 µM
OC[C@H]1O[C@@H](n2cnc3c(NC4CCCCCC4)nc(Cl)nc32)[C@H](O)[C@@H]1O,cytopathic effect,Maedi-visna virus,KV1772,Sheep chondrocytes G81092,,,EC50,0.15 µM
Nc1ncnc2c1ncn2C[C@@H](CO)OCP(=O)(O)O,plaque count,Mouse cytomegalovirus,Foscarnet-resistant,C1271,,,EC50,0.6 µM
Nc1ncnc2c1ncn2C[C@H](CO)OCP(=O)(O)O,virus yield,Adenovirus,adenoid 6 (TYPE 2),,,,EC90,0.6 µg/mL
OC[C@@H]1CC[C@H](n2cnc3c(NC4CCCCCC4)ncnc32)O1,cytopathic effect,Maedi-visna virus,KV1772,Sheep chondrocytes G81092,,,EC50,8.6 µM
CC1NC(=O)C(C)NC(=O)C2CCCN2C(=O)C(CCCCCC(=O)C2CO2)NC1=O,,Toxoplasma gondii,,,,,MIC,0.015 µg/mL
O=C1Nc2ncn(Cc3ccccc3)c2C(=O)N(Cc2ccccc2)N1,cytopathic effect,West Nile virus,,HepG2.2.15,,,EC50,3–5 µM
O=C1N(Cc2ccc(CO)cc2)[C@H](Cc2ccccc2)[C@H](O)[C@@H](O)[C@@H](Cc2ccccc2)N1Cc1ccc(CO)cc1,p24,HIV-1,G clinical isolate,PBMC,0.16 µM,,inhibition,90%
Nc1ccn([C@H]2CC[C@@H](CO)O2)c(=O)n1,virus yield,HIV-2,LAV-2,CEM,0.001 µM,,inhibition,99.9%
Cc1cn([C@H]2C[C@H](N=[N+]=[N-])[C@@H](CO)O2)c(=O)[nH]c1=O,p24 / ELISA,SHIV,,PBMC,,,EC50,0.002 µM
Nc1ncnc2c1ccn2[C@@H]1O[C@H](CO)[C@@H](O)[C@H]1O,cytopathic effect,Herpes simplex virus 1,KOS,HeLa,,,EC50,>200 µg/mL
CCCCCCCCCCCCNc1nc(=O)c2ncn([C@@H]3O[C@H](CO)[C@@H](O)[C@H]3O)c2c(=O)[nH]1,cytopathic effect,West Nile virus,,HepG2.2.15,,,EC50,1–3 µM
CC1=CC(=O)c2c(O)cccc2C1=O,broth dilution,Aspergillus niger,CCAM 080002,,,,MIC100,5 µg/mL
NC(=O)c1ncn([C@@H]2O[C@H](CO)[C@@H](O)[C@H]2O)n1,plaque count,Pichinde virus,COAN3739,VERO 76,,,EC50,60 µg/mL

A second listing of 5 rows from above:

compound	method	species	strain	cells	tested at	changes	endpoint	value
OC[C@H]1O[C@@H](n2cnc3c(NC4CC4)ncnc32)[C@H](O)[C@@H]1O	cytopathic effect	Maedi-visna virus	KV1772	Sheep chondrocytes G81092			EC50	15 µM
N=C(N)c1ccc2[nH]c(C(=N)N)cc2c1	cytopathic effect	Respiratory syncytial virus	S-2	HeLa			EC50	>100 µg/mL
Nc1nc2c(ncn2COC(COCP(=O)(O)O)COCP(=O)(O)O)c(=O)[nH]1	plaque count	Mouse cytomegalovirus	HPMPC-resistant	C1271			EC50	3.7 µM
C[C@H](Cn1cnc2c(N)ncnc21)OCP(=O)(O)O	p27 / ELISA	SIV		PBMC			EC90	0.24 µM
Nc1cc2[nH]cnc2c(=O)[nH]1	cytopathic effect	Respiratory syncytial virus	58-8	HeLa			EC50	1 µg/mL

Two numbers with a dash give a range or band. Lines come from different laboratories, so protocols vary. Inhibition is in % at the dose shown (toxicity tests: loss of growth or viability). Fold resistance: result on the changed form divided by that on wild type. MIC50, MIC90 and the like: level of inhibition, or share of isolates inhibited. ECn: concentration that inhibits the pathogen or its effect by n%. Zone: diameter of growth inhibition.